Measured values from several laboratories, pooled; numbers as filed in NIAID ChemDB.

All rows: growth or infection tests; species: Mycobacterium tuberculosis

Percent inhibition refers to the dose given; in toxicity tests it is the harm to the cells. MIC50, MIC90 and the like: level of inhibition, or share of isolates inhibited. ECn is the concentration giving n% inhibition of infection, replication or growth. Conditions beyond the fields shown may differ between rows. Fold resistance: result on the changed form divided by that on wild type. Blank or dashed fields: not listed here. MIC bound comes from a single tested concentration.

compound | dose | read by | strain or isolate | read-out | mutations | cells | result
CCOC(=O)Nc1cc2c([nH]c(=S)n2/N=C/c2ccc3c(c2)OCO3)c(N)n1 |  |  | H37Rv | EC50 |  |  | >12.5 µg/mL
CCCCC(CC)CN1CN(CC(CC)CCCC)CC(C)(NCCNC2CCCC2)C1 |  |  |  | MIC |  |  | 25 µM
Cc1ncc(CO)c(CO)c1O |  | BACTEC | H37Rv | MIC bound |  |  | >12.5 µg/mL
CC(NCCNCC1(O)CCCCC1)c1cccc2ccccc12 |  |  |  | MIC |  |  | 50 µM
CC(=O)Oc1cc2oc3cc(=O)/c(=C(\C)O)c(CCC(C)C)c3c(O)c2c(=O)c1CCC(C)C |  | resazurin | H37Ra | MIC |  |  | 3.12 µg/mL
CO[C@@]12[C@H](COC(=O)NCCO)C3=C(C(=O)C(C)=C(N)C3=O)N1C[C@H]1[C@@H]2N1C |  |  | CS-R | MIC |  |  | 1.6 µg/mL
COc1ccccc1CSc1ccccn1 |  |  | H37Ra | MIC |  |  | >12.8 µg/mL
CC[C@H]1OC(=O)[C@H](C)[C@@H](O[C@H]2C[C@@](C)(OC)[C@@H](O)[C@H](C)O2)[C@H](C)[C@@H](O[C@@H]2O[C@H](C)C[C@H](N(C)C)[C@H]2O)[C@](C)(OC)C[C@@H](C)C(=O)[C@H](C)[C@@H](O)[C@]1(C)O |  |  | H37Ra | Mean MIC |  |  | 5.5 µg/mL
COc1c2ccoc2c(S(=O)(=O)Nc2ccc(Cl)cc2)c2oc(C)cc(=O)c12 |  | BACTEC | H37Rv | MIC bound |  |  | >12.5 µg/mL
CCc1nc2ccc(C)cc2n1CCCNc1ccc(C)cc1 |  | turbidity / fluorescence | H37Rv | MIC99 |  |  | 0.066 µM
NC(=O)c1cnccn1 |  |  | Isolate K10436 | MIC |  |  | >100 µg/mL
CCOC(=O)Nc1cc(NC(O)CCCN(CC)CC)c2ncc(-c3cc(OC)c(OC)c(OC)c3)nc2n1 |  |  | H37Rv | EC50 |  |  | >12.5 µg/mL
NNC(=O)c1ccncc1 |  |  | 3S | MIC |  |  | 0.1 µg/mL
NC[C@H]1O[C@H](O[C@H]2[C@H](O)[C@@H](O[C@H]3O[C@H](CO)[C@@H](O)[C@H](N)[C@H]3O)[C@H](N)C[C@@H]2N)[C@H](O)[C@@H](O)[C@@H]1O |  |  | H37Ra | Median MIC |  |  | 2.5 µg/mL
O=C1c2ccccc2C(=O)c2c(NCCCNCCO)ccc(NCCCNCCO)c21 | 12.5 µg/mL | BACTEC | H37Rv | inhibition |  |  | 56%
CCOC(=O)Nc1cc2c(c(N)n1)N=C(c1ccccc1)CS2 |  |  | H37Rv | EC50 |  |  | <12.5 µg/mL
CCc1nc2ccccc2n1CCCCSc1nnc(-c2ccc(Cl)cc2)o1 |  | turbidity / fluorescence | H37Rv | fold resistance | Rv1339 V90M |  | 10
O=C(CNC(=O)NCc1ccco1)N/N=C/c1ccccc1O | 12.5 µg/mL | BACTEC | H37Rv | inhibition |  |  | -5%
COc1c(O)cc2oc3cc(O)c(CCC(C)C)c(O)c3c(=O)c2c1CCC(C)C |  | resazurin | H37Rv | MIC | MDR |  | 1.56 µg/mL
CCOC(=O)c1oc(C(=O)OCC)c(O)c1O |  | BACTEC | H37Rv | MIC bound |  |  | >12.5 µg/mL
CC(=O)NC[C@H]1CN(c2ccc(N3CCOCC3)c(F)c2)C(=O)O1 |  |  | 1R | MIC |  |  | 0.5 µg/mL
COC(=O)c1nc(C(=O)OC)c(C(=O)OC)nc1C(=O)OC |  | BACTEC | H37Rv | MIC bound |  |  | >12.5 µg/mL
CO[C@H]1/C=C/O[C@@]2(C)Oc3c(C)c(O)c4c(O)c(c(/C=N/N5CCN(C6CCCC6)CC5)c(O)c4c3C2=O)NC(=O)/C(C)=C\C=C\[C@H](C)[C@H](O)[C@@H](C)[C@@H](O)[C@@H](C)[C@H](OC(C)=O)[C@@H]1C |  |  | H37Ra | Mean MIC |  |  | 0.004 µg/mL
O=c1nc(SCc2cccc3ccccc23)c2[nH]cnc2[nH]1 |  |  | H37Ra | MIC |  |  | >12.8 µg/mL
C[C@H]1COc2c(N3CCN(C)CC3)c(F)cc3c(=O)c(C(=O)O)cn1c23 |  |  | Isolate 12 | MIC |  |  | 0.25 µg/mL
CNc1nc2c(C)ccc3[nH]c(N(C)C)nc3c-2n1.Cl.Cl |  | BACTEC | H37Rv | MIC bound |  |  | >12.5 µg/mL
CCOC(=O)Nc1cc(NC(c2ccccc2)c2ccccc2)c2[nH]cnc2n1 |  |  | H37Rv | EC50 |  |  | >12.5 µg/mL
CC(C)c1ccc2c(c1)CC[C@H]1[C@](C)(CNCCN[C@H](CO)Cc3ccccc3)CCC[C@]21C |  |  |  | MIC |  |  | 25 µM
[N-]=[N+]=N[C@H]1C[C@H](n2ccc(=O)[nH]c2=O)O[C@@H]1COC(c1ccccc1)(c1ccccc1)c1ccccc1 |  | BACTEC | H37Rv | MIC bound |  |  | >12.5 µg/mL
C[C@@H]1CN(c2c(F)c(N)c3c(=O)c(C(=O)O)cn(C4CC4)c3c2F)C[C@H](C)N1 |  |  | Isolate 14 | MIC |  |  | 0.13 µg/mL
O=c1oc2ccc(Cl)cc2c(=O)n1-c1ccc(Br)cc1 |  |  | CNCTC MY331/88 | MIC |  |  | 4 µM
COc1ccc(C(=O)/C=C/c2ccccc2)c(O)c1 |  |  | H37Rv | EC50 |  |  | <12.5 µg/mL
Cc1ccc(CSc2ccncc2)cc1 |  |  | H37Rv | MIC90 |  |  | >6.25 µg/mL
COC1(CO)C(=O)N(C)CC(=O)N1C |  |  | INH-r | MIC |  |  | 6.3 µg/mL
CC(NCCNCCC(c1ccccc1)c1ccccc1)C12CC3CC(CC(C3)C1)C2 |  |  |  | MIC |  |  | 6.25 µM
CCc1nc2ccc(C)cc2n1CCCCNc1ccc(C)cc1 |  | turbidity / fluorescence | H37Rv | MIC90 | WT |  | 0.88 µM
O=c1nc(SCc2cccnc2)c2[nH]cnc2[nH]1 | 6.25 µg/mL |  | H37Rv | inhibition |  |  | 1%
COc1cccc2c1C(=O)c1c(O)c3c(c(O)c1C2=O)C[C@@](O)(/C(C)=N/NC(=O)c1cccc([N+](=O)[O-])c1)C[C@H]3O[C@H]1CC(N)[C@H](O)[C@H](C)O1 |  |  | RMP-R | MIC |  |  | >12.5 µg/mL
O=c1oc2cc(Cl)ccc2c(=O)n1-c1ccc(F)cc1 |  |  | CNCTC MY331/88 | MIC |  |  | 8 µM
CC1=NN(C(=O)CC(=O)Nc2ccc(Cl)cc2)C(=O)C1N=Nc1cc(Cl)ccc1Cl |  | BACTEC | H37Rv | MIC bound |  |  | >12.5 µg/mL
CO[C@H]1/C=C/O[C@@]2(C)Oc3c(C)c(O)c4c(O)c(c(/C=N/N5CCN(C6CCCC6)CC5)c(O)c4c3C2=O)NC(=O)/C(C)=C\C=C\[C@H](C)[C@H](O)[C@@H](C)[C@@H](O)[C@@H](C)[C@H](O)[C@@H]1C |  |  | Isolate 900240 drug-susceptible | MIC |  |  | 0.5 µg/mL
Cc1nc(Nc2ccccc2)sc1C(=O)NNC(N)=O | 6.25 µg/mL | resazurin | H37Rv | inhibition |  |  | 52%
COc1c(OCCO)cc2oc3cc(O)c(CCC(C)C)c(O)c3c(=O)c2c1CCC(C)C |  | resazurin | H37Ra | MIC |  |  | 1.56 µg/mL
CSC(=S)NN=C1CCCCC1 |  |  | EMB-R | MIC |  |  | 12.8 µg/mL
CO[C@H]1/C=C/O[C@@]2(C)Oc3c(C)c(O)c4c(O)c(c(/C=N/N5CCN(C)CC5)c(O)c4c3C2=O)NC(=O)/C(C)=C\C=C\[C@H](C)[C@H](O)[C@@H](C)[C@@H](O)[C@@H](C)[C@H](OC(C)=O)[C@@H]1C |  |  | H37Ra | Mean MIC |  |  | 0.006 µg/mL
CC(=O)c1c(OCCCCBr)cc2oc3cc(O)c(CCC(C)C)c(O)c3c(=O)c2c1CCC(C)C |  | resazurin | H37Ra | MIC |  |  | 12.5 µg/mL
Cc1nn(C)c2c(N)n[nH]c12 |  | BACTEC | H37Rv | MIC |  | VERO | ≥128 µg/mL
CCCCCC(C)NCCNc1cccc2ncccc12 |  |  |  | MIC |  |  | 6.25 µM
CC(C)C1=C(O)C2=C(C(=O)C1=O)[C@@]1(C)CCCC(C)(C)C1C[C@H]2O | 12.5 µg/mL | BACTEC | H37Rv | inhibition |  |  | 47%
NNC(=O)c1ccncc1 |  |  | 42494 | MIC |  |  | ≥0.2 µg/mL
C=CC(C)(C)c1c(OC(C)=O)cc2oc3c(OC(C)=O)c(OC(C)=O)cc(CC=C(C)C)c3c(=O)c2c1O |  | BACTEC | H37Rv | MIC bound |  |  | >12.5 µg/mL
COc1ccc(C2CC(=O)c3cc(F)ccc3O2)cc1 |  |  | H37Rv | EC50 |  |  | >12.5 µg/mL
COc1ccccc1CSc1ccncc1 |  |  | H37Ra | MIC |  |  | >12.8 µg/mL
c1ccc(C(CNCCNCCCN2CCOCC2)c2ccccc2)cc1 |  |  |  | MIC |  |  | 25 µM
CO[C@H]1/C=C/O[C@@]2(C)Oc3c(C)c(O)c4c(=O)c(c5oc6cc(N7CCN(C(C)C)CC7)cc(=O)c6nc5c4c3=C2O)NC(=O)/C(C)=C\C=C\[C@H](C)[C@H](O)[C@@H](C)[C@@H](O)[C@@H](C)[C@H](OC(C)=O)[C@@H]1C |  |  | 9 (rifampin-resistant) | MBC |  |  | 0.1 µg/mL
Nc1nc(N)c2nc3c(nc2n1)C(=O)N(c1ccc(C(=O)O)cc1)C3 | 12.8 µg/mL | BACTEC | H37Rv | inhibition |  |  | 34%
CC1COc2c(N3CCN(C)CC3)c(F)cc3c(=O)c(C(=O)O)cn1c23 |  |  | 900241 | MIC |  |  | 0.75 µg/mL
CC(=O)c1c(OCCO)cc2oc3cc(OCCO)c(CCC(C)C)c(O)c3c(=O)c2c1CCC(C)C |  | resazurin | H37Ra | MIC |  |  | 3.12 µg/mL
COc1ccccc1Sc1nc(Cl)nc2nc[nH]c12 | 6.25 µg/mL |  | H37Rv | inhibition |  |  | 3%
c1coc(CNCCNCc2ccco2)c1 |  |  |  | MIC |  |  | 25 µM
CO[C@H]1/C=C/O[C@@]2(C)Oc3c(C)c(O)c4c(O)c(c(/C=N/N5CCN(C/C=C/c6ccccc6)CC5)c(O)c4c3C2=O)NC(=O)/C(C)=C\C=C\[C@H](C)[C@H](O)[C@@H](C)[C@@H](O)[C@@H](C)[C@H](OC(C)=O)[C@@H]1C |  |  | 2847 (rifampin-sensitive) | MIC |  |  | 0.1 µg/mL
NNC(=O)c1ccncc1 |  |  | Isolate 2 | MIC |  |  | 16 µg/mL
O=C1CC(c2ccc(O)c(O)c2)Oc2c1c(O)cc(O[C@@H]1O[C@H](CO)[C@@H](O)[C@H](O)[C@H]1O)c2C1C(=O)c2c(O)cc(O)cc2OC1c1ccc(O)cc1 |  |  | H37Rv | EC50 |  |  | >12.5 µg/mL
CO[C@H]1/C=C/O[C@@]2(C)Oc3c(C)c(O)c4c(O)c(c(/C=N/N5CCN(C)CC5)c(O)c4c3C2=O)NC(=O)/C(C)=C\C=C\[C@H](C)[C@H](O)[C@@H](C)[C@@H](O)[C@@H](C)[C@H](OC(C)=O)[C@@H]1C |  |  | 101596 | MIC |  |  | ≥2 µg/mL
Clc1nc(Sc2ccncc2)c2[nH]cnc2n1 |  |  | H37Ra | MIC |  |  | >12.8 µg/mL
O=C(/C=C/c1ccccc1)c1cc(Cl)ccc1O |  |  |  | EC50 |  |  | <12.5 µg/mL
NC[C@@H]1O[C@H](O[C@H]2[C@@H](O)[C@H](O[C@@H]3[C@@H](O)[C@H](N)C[C@H](N)[C@H]3O[C@H]3O[C@H](CO)[C@@H](O)[C@H](O)[C@H]3N)O[C@@H]2CO)[C@H](N)[C@@H](O)[C@@H]1O |  |  | H37Ra | Mean MIC |  |  | 5 µg/mL
CCOC(=O)Nc1cc2[nH]c(-c3ccc(O)cc3)nc2c(N)n1 |  |  | H37Rv | EC50 |  |  | >12.5 µg/mL
COc1ccc2oc(=O)n(-c3cccc(Cl)c3)c(=O)c2c1 |  |  | CNCTC MY331/88 | MIC |  |  | 125 µM
CC(=O)c1c(OCc2ccccc2)cc2oc3cc(O)c(CCC(C)C)c(O)c3c(=O)c2c1CCC(C)C |  | resazurin | H37Ra | MIC |  |  | 6.25 µg/mL
N[C@@H]1CONC1=O |  |  | H37Rv | Median MIC |  |  | 12.5 µg/mL
CCCCCCCCCCCc1c(O)c(O)c(-c2ccccn2)c2nonc12 | 12.5 µg/mL | BACTEC | H37Rv | inhibition |  |  | 8%
Cc1onc(-c2ccccc2Cl)c1C(=O)N[C@@H]1C(=O)N2[C@@H]1SC(C)(C)[C@@H]2C(=O)O |  |  | H37Ra | Mean MIC |  |  | 160 µg/mL
Cc1ccc(-n2c(=O)oc3ccc(C)cc3c2=O)cc1 |  |  | CNCTC MY331/88 | MIC |  |  | 62.5 µM
CCc1nc2ccccc2n1CCCCOc1ccc(C)c(C)c1 |  | turbidity / fluorescence | H37Rv | MIC90 | QcrB M342T |  | >100 µM
COc1ccc(Sc2ncccn2)cc1OC |  |  | H37Rv | MIC90 |  |  | >6.25 µg/mL
C1CCCC(NCCNC2CCCCCCC2)CCC1 |  |  |  | MIC |  |  | 12.5 µM
CO[C@@]12[C@H](COC(N)=O)C3=C(C(=O)C(C)=C(N)C3=O)N1C[C@H]1[C@@H]2N1C(=O)/C=C/c1ccccc1 |  |  | KM-R | MIC |  |  | <0.1 µg/mL
CN[C@@H]1[C@H](O[C@H]2[C@H](O[C@H]3[C@H](O)[C@@H](O)[C@H](N=C(N)N)[C@@H](O)[C@@H]3N=C(N)N)O[C@@H](C)[C@]2(O)C=O)O[C@@H](CO)[C@H](O)[C@H]1O |  |  | H37Rv | Median MIC |  |  | 0.28 µg/mL